Test [1] has as its target HA of H1N1 A/California/07/2009 (influenza A virus). Briefly: cell-based or functional assay.
Test [2] addresses HA of H3N2 A/Brisbane/10/2007 (influenza A virus). Briefly: AlphaLISA competition vs CR8057. For orientation: Alpha assays give light when donor and acceptor beads are brought close together.
Test [3] deals with HA of H3N2 A/Wisconsin/67/2005 (influenza A virus). Briefly: AlphaLISA competition vs CR8057.
Test [4] has as its target HA of H1N1 A/Brisbane/59/07 (influenza A virus). Briefly: BLI steady state.
The target in test [5] is HA of H3N2 A/Brisbane/10/2007 (influenza A virus). Briefly: BLI steady state.
Test [6] addresses HA of H3N2 A/Wisconsin/67/2005 (influenza A virus). Briefly: BLI steady state.
The target in test [7] is HA of H1N1 A/New Caledonia/20/1999 (influenza A virus). Briefly: BLI steady state.
Test [8] has as its target HA of H7N9 A/Hangzhou/1/2013 (influenza A virus). Briefly: BLI steady state.
Test [9] has as its target T1, HA of H7N3 A/NIBRG/60 (A/mallard/NL/12/00) (influenza A virus). Briefly: BLI steady state.
The target in test [10] is HA of H3N2 A/Brisbane/10/2007 (influenza A virus). Briefly: AlphaLISA competition vs CR8020.
The target of test [11] is HA of H3N2 A/Wisconsin/67/2005 (influenza A virus). Briefly: AlphaLISA competition vs CR8020.
Test [12] has as its target HA of B/Brisbane/60/2008 (Victoria) (influenza B virus). Briefly: AlphaLISA competition vs CR9114.
Test [13] deals with HA of H3N2 A/Brisbane/10/2007 (influenza A virus). Briefly: AlphaLISA competition vs SD1036.
For test [14] the target is unchanged. Briefly: AlphaLISA competition vs CR9114.
The target of test [15] is HA of H3N2 A/Wisconsin/67/2005 (influenza A virus). Briefly: AlphaLISA competition vs CR9114.
Test [16] has as its target HA of H1N1 A/New Caledonia/20/1999 (influenza A virus). Briefly: AlphaLISA competition vs CR9114.
The target in test [17] is HA of H5N1 A/Vietnam/1203/2004 (influenza A virus). Briefly: AlphaLISA competition vs CR9114.
Test [18] has as its target HA of H1N1 A/Puerto Rico/8/34-MA (influenza A virus). Briefly: cell-based or functional assay.
Test [19] concerns the target HA of H1N1 A/Brisbane/59/07 (influenza A virus). Briefly: cell-based or functional assay.
In test [20] the target is HA of H3N2 A/Brisbane/10/2007 (influenza A virus). Briefly: cell-based or functional assay.
Test [21] has as its target HA of B/Brisbane/60/2008 (Victoria) (influenza B virus). Briefly: cell-based or functional assay.
For test [22], the target named is HA of H1N1 A/New Caledonia/20/1999 (influenza A virus). Briefly: cell-based or functional assay.
The target of test [23] is HA of H5N1 A/Vietnam/1194/04 (influenza A virus). Briefly: cell-based or functional assay.
Test [24] concerns the target T1, HA of H7N3 A/NIBRG/60 …. Briefly: cell-based or functional assay.
Test [25] concerns the target HA of H5N1 A/PR8 H5N1 HK97 (influenza A virus). Briefly: cell-based or functional assay.
Test [26] addresses HA of H3N2 A/Brisbane/10/2007 (influenza A virus). Briefly: AlphaLISA competition vs SD1038.
Test [27] has as its target hemagglutinin (HA) of influenza virus H5N1 A/Vietnam/1194/04 (influenza A virus). Briefly: cell-based or functional assay.
Test [28] has as its target hemagglutinin (HA) of influenza virus H1N1 A/California/07/09 (influenza A virus). Briefly: cell-based or functional assay.
The target in test [29] is hemagglutinin (HA) of influenza virus H3N2 A/Wisconsin/67/05 (influenza A virus). Briefly: cell-based or functional assay.
The target in test [30] is HA of H1N1 A/Puerto Rico/8/34-MA (influenza A virus). Briefly: cell-based or functional assay. This is another data set of the same source.
For test [31], the target named is HA of B/Florida/04/2006 (Yamagata) (influenza B virus). Briefly: cell-based or functional assay.
Test [32] addresses HA of H3N2 A/Brisbane/10/2007 (influenza A virus). Briefly: cell-based or functional assay. This is another data set of the same source.
The target in test [33] is HA of B/Brisbane/60/2008 (Victoria) (influenza B virus). Briefly: cell-based or functional assay. This is another data set of the same source.
For test [34], the target named is HA of H3N2 A/Wisconsin/67/2005 (influenza A virus). Briefly: cell-based or functional assay.
In test [35] the target is HA of H1N1 A/New Caledonia/20/1999 (influenza A virus). Briefly: cell-based or functional assay. The source holds these as a separate data set.
In test [36] the target is HA of H5N1 A/Vietnam/1194/04 (influenza A virus). Briefly: cell-based or functional assay. This is another data set of the same source.
For test [37], the target named is HA of H1N1 A/California/07/2009 (influenza A virus). Briefly: cell-based or functional assay. The source holds these as a separate data set.
Test [38] has as its target T1, HA of H7N3 A/NIBRG/60 …. Briefly: cell-based or functional assay. The source holds these as a separate data set.
Test [39] concerns the target HA of H5N1 A/PR8 H5N1 HK97 (influenza A virus). Briefly: cell-based or functional assay. This is another data set of the same source.
For test [40], the target named is HA of H1N1 A/California/07/2009 (influenza A virus). Briefly: AlphaLISA competition vs CR9114.
In test [41] the target is HA of H1N1 A/Brisbane/59/07 (influenza A virus). Briefly: cell-based or functional assay. This is another data set of the same source.
The target of test [42] is HA of H3N2 A/Brisbane/10/2007 (influenza A virus). Briefly: cell-based or functional assay. This is another data set of the same source.
The target of test [43] is HA of H3N2 A/Wisconsin/67/2005 (influenza A virus). Briefly: cell-based or functional assay. This is another data set of the same source.
In test [44] the target is HA of H1N1 A/New Caledonia/20/1999 (influenza A virus). Briefly: cell-based or functional assay. The source holds these as a separate data set.
The target in test [45] is HA of H5N1 A/Vietnam/1194/04 (influenza A virus). Briefly: cell-based or functional assay. This is another data set of the same source.
In test [46] the target is T1, HA of H7N3 A/NIBRG/60 …. Briefly: cell-based or functional assay. The source holds these as a separate data set.

Read-outs that look alike come from different tables or passages of the source. Where only a bound is given, the exact number is not on record here.

B1: SD1045 (VHH)
VHH: EVQLVESGGGLVQAGGSLRLSCAASGSSFSINVMGWYRQAPGKQREMVATITYGGSTNYVDSVKGRFTISRDNAKNTVYLQMNSLKPEDTAVYYCNSRLAQINYWGQGTQVTVSS
notes: llama sdAb
With B1, the VNA titer in test [1] is 85.9 nM.

B2: SD1038 (VHH)
VHH: EVQLVESGGGLVQPGGSLRLSCAVSISIFDIYAMDWYRQAPGKQRDLVATSFRDGSTNYADSVKGRFTISRDNAKNTLYLQMNSLKPEDTAVYLCHVSLYRDPLGVAGGMGVYWGKGALVTVSS
notes: llama sdAb
A word on the pIC50: it is the negative decadic logarithm of the IC50, by convention in mol/L. A lower pIC50 goes with a large IC50. As usually defined, the Kd is the free concentration of one partner at which half of the binding sites on the other are occupied at equilibrium, for simple one-to-one binding. Low values mean a tighter complex, high ones a looser complex. In the case of B2, the pIC50 in test [2] was less than 7; in test [3], less than 7; in [10], 7.8; in test [11], 7.2; in [12], less than 7; in test [13] it was 7.9. For the same molecule, the pIC50 amounted to 8.6 in test [14]; 8 in test [15]; 10.1 in test [16]; 9.3 in [17]; 8.3 in test [26]. For the same molecule, the Kd in test [4] worked out at 3 nM; in test [5] it was 14 nM; in [6] it was 42 nM; in test [7], 4 nM; in test [8], 57 nM; in [9], 88 nM. In addition, the VNA titer is 8.8 nM in test [18]; 3.1 nM in test [19]; 19 nM in [20]; greater than 1000 nM in test [21]; 10.1 nM in test [22]; 30.1 nM in test [23]. Moreover, the VNA titer in test [24] was greater than 1000 nM; in [25], 9.7 nM.

B3: SD1038 (VHH)
VHH: B2 VHH
For B3, the neutralization titer in [27] is 30.1 nM; in [28] it was 17.5 nM; in [29], less than 1000 nM.

B4: SD1016 (VHH)
VHH: EVQLVESGGGLVQAGGSLRLSCVASGMFFGIAAMGWYRQAPGKQRELVANITSDFSTNYADSVKDRFTISRDNAENTVYLQMNSLKPEDTAVYYCAADSLGTGWRHYYYWGQGTQVTVSS
notes: llama sdAb
For B4, the pIC50 in [2], in test [3], in test [10], in test [11], in test [14] and in [15] was less than 7 in each case. The negative-log IC50 (pIC50) in test [16] amounted to 9.9; in test [17], 9.6; in test [40], 10.3. The Kd in test [7] was found to be 6 nM. Also, the VNA titer was 15.7 nM in [30]; greater than 1000 nM in test [31]; greater than 1000 nM in test [32]; greater than 1000 nM in test [33]; greater than 1000 nM in [34]; 7.1 nM in test [35]. Besides, the VNA titer was 29.3 nM in test [36], 9.1 nM in test [37], greater than 1000 nM in test [38] and 27.8 nM in test [39].

B5: SD1014 (VHH)
VHH: EVQLVESGGGLVQAGGSLTLSCAASGRTYAMAWFRQAPGKEREFVAHINALGTRTYYSDSVKGRFTISRDNAKNTEYLQMNSLNPEDTAVYYCAAGGQWRAAPVADAAQYDFWGQGTQVTVSS
notes: llama sdAb
For the molecule B5, the pIC50 was less than 7 in [2]; less than 7 in test [3]; 7.2 in test [10]; less than 7 in test [11]; less than 7 in [12]; 7.8 in test [14]. For the same molecule, the pIC50 in test [15], in [16] and in test [17] was less than 7 each time. Also, the VNA titer in [41] is greater than 1000 nM; in test [42], greater than 1000 nM; in [43] it was greater than 1000 nM; in test [44], greater than 1000 nM; in test [45], greater than 1000 nM; in test [46], 137 nM.
